{"source": "PubChem BioAssay AID1259414 (Drosophila RNAi Screening Center, 2018)", "screen": "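Host factors increasing or decreasing Wolbachia levels in cultured fly cells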 (primary screen)", "cells": "Drosophila JW18 cells infected with Wolbachia", "reagents": "long dsRNA against Drosophila genes, 0.25 µg dsRNA per well of a 384-well plate", "timing": "5 days", "conditions": "cells persistently infected with Wolbachia before knock-down; no added drug", "detection": "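Imaged fluorescence in situ signal for Wolbachia 23S rRNA per DAPI-counted host cell, given as a robust z-score within each plate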", "scale": "Wolbachia per cell robust z: higher = more Wolbachia per host cell than the plate typical", "hit rule": "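Hit when robust z is 1.5 or more, or -1.5 or less, in at least two of three replicates; excludes dsRNAs with several or no targets, genes not expressed in JW18 and well A1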", "note": "The deposit covers about 24,000 reagents; this is an unselected part of those with a known target gene and a result. In the full data, about 1,210 (5%) got an active call. 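Inactive calls also include excluded dsRNAs with several or no targets, genes unexpressed in JW18, and well A1, regardless of score.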 Reagents against one gene are numbered here. A plus sign joins genes that one reagent is predicted to hit."}
{"target": "Pgant5", "reagent no.": 1, "Wolbachia per cell robust z, rep 1": -1.53, "Wolbachia per cell robust z, rep 2": -0.017, "Wolbachia per cell robust z, rep 3": 0.69, "call": "inactive"}
{"target": "CG33798", "reagent no.": 1, "Wolbachia per cell robust z, rep 1": 0.697, "Wolbachia per cell robust z, rep 2": -1.25, "Wolbachia per cell robust z, rep 3": 0.875, "call": "inactive"}
{"target": "Mfap1", "reagent no.": 1, "Wolbachia per cell robust z, rep 1": 0.707, "Wolbachia per cell robust z, rep 2": 0.752, "Wolbachia per cell robust z, rep 3": 2.1, "call": "inactive"}
{"target": "Mfap1", "reagent no.": 2, "Wolbachia per cell robust z, rep 1": 0.554, "Wolbachia per cell robust z, rep 2": 0.359, "Wolbachia per cell robust z, rep 3": -0.625, "call": "inactive"}
{"target": "hrg", "reagent no.": 1, "Wolbachia per cell robust z, rep 1": -0.125, "Wolbachia per cell robust z, rep 2": 0.289, "Wolbachia per cell robust z, rep 3": -0.926, "call": "inactive"}
{"target": "gdl + gdl-ORF39", "reagent no.": 1, "Wolbachia per cell robust z, rep 1": -2.64, "Wolbachia per cell robust z, rep 2": -0.744, "Wolbachia per cell robust z, rep 3": -0.29, "call": "inactive"}
{"target": "Gen", "reagent no.": 1, "Wolbachia per cell robust z, rep 1": -0.646, "Wolbachia per cell robust z, rep 2": 0.739, "Wolbachia per cell robust z, rep 3": -0.327, "call": "inactive"}
{"target": "CG32573 + CG42512", "reagent no.": 1, "Wolbachia per cell robust z, rep 1": 0.315, "Wolbachia per cell robust z, rep 2": -1.53, "Wolbachia per cell robust z, rep 3": 0.435, "call": "inactive"}
{"target": "Ubx", "reagent no.": 1, "Wolbachia per cell robust z, rep 1": -2.61, "Wolbachia per cell robust z, rep 2": -0.507, "Wolbachia per cell robust z, rep 3": 0.484, "call": "inactive"}
{"target": "Ubx", "reagent no.": 2, "Wolbachia per cell robust z, rep 1": -0.136, "Wolbachia per cell robust z, rep 2": 1.42, "Wolbachia per cell robust z, rep 3": -0.331, "call": "inactive"}
{"target": "Ubx", "reagent no.": 3, "Wolbachia per cell robust z, rep 1": -0.0502, "Wolbachia per cell robust z, rep 2": -2.14, "Wolbachia per cell robust z, rep 3": -0.52, "call": "inactive"}
{"target": "CG9467", "reagent no.": 1, "Wolbachia per cell robust z, rep 1": -1.33, "Wolbachia per cell robust z, rep 2": 1.62, "Wolbachia per cell robust z, rep 3": 0.664, "call": "inactive"}
{"target": "Gr58b", "reagent no.": 1, "Wolbachia per cell robust z, rep 1": 0.39, "Wolbachia per cell robust z, rep 2": 0.473, "Wolbachia per cell robust z, rep 3": 0.739, "call": "inactive"}
{"target": "mthl6", "reagent no.": 1, "Wolbachia per cell robust z, rep 1": 0.955, "Wolbachia per cell robust z, rep 2": 0.00645, "Wolbachia per cell robust z, rep 3": 0.00378, "call": "inactive"}
{"target": "CG3760", "reagent no.": 1, "Wolbachia per cell robust z, rep 1": 0.534, "Wolbachia per cell robust z, rep 2": 0.791, "Wolbachia per cell robust z, rep 3": -1.06, "call": "inactive"}
{"target": "CG1986", "reagent no.": 1, "Wolbachia per cell robust z, rep 1": 0.698, "Wolbachia per cell robust z, rep 2": -0.164, "Wolbachia per cell robust z, rep 3": 0.715, "call": "inactive"}
{"target": "CG1986", "reagent no.": 2, "Wolbachia per cell robust z, rep 1": 0.698, "Wolbachia per cell robust z, rep 2": 1.16, "Wolbachia per cell robust z, rep 3": -0.229, "call": "inactive"}
{"target": "CG32277", "reagent no.": 1, "Wolbachia per cell robust z, rep 1": 0.311, "Wolbachia per cell robust z, rep 2": -4.35, "Wolbachia per cell robust z, rep 3": 0.317, "call": "inactive"}
{"target": "CG8475", "reagent no.": 1, "Wolbachia per cell robust z, rep 1": 1.17, "Wolbachia per cell robust z, rep 2": 0.838, "Wolbachia per cell robust z, rep 3": -0.896, "call": "inactive"}
{"target": "Fa2h", "reagent no.": 1, "Wolbachia per cell robust z, rep 1": 0.3, "Wolbachia per cell robust z, rep 2": 0.361, "Wolbachia per cell robust z, rep 3": 0.0391, "call": "inactive"}
{"target": "Fa2h", "reagent no.": 2, "Wolbachia per cell robust z, rep 1": -1.18, "Wolbachia per cell robust z, rep 2": -0.355, "Wolbachia per cell robust z, rep 3": -0.518, "call": "inactive"}
{"target": "CG13154", "reagent no.": 1, "Wolbachia per cell robust z, rep 1": 1.32, "Wolbachia per cell robust z, rep 2": 0.676, "Wolbachia per cell robust z, rep 3": 0.596, "call": "inactive"}
{"target": "CG7409", "reagent no.": 1, "Wolbachia per cell robust z, rep 1": 0.729, "Wolbachia per cell robust z, rep 2": -0.135, "Wolbachia per cell robust z, rep 3": -0.717, "call": "inactive"}
{"target": "CG7409", "reagent no.": 2, "Wolbachia per cell robust z, rep 1": 0.691, "Wolbachia per cell robust z, rep 2": -0.499, "Wolbachia per cell robust z, rep 3": 1.04, "call": "inactive"}
{"target": "CG8252", "reagent no.": 1, "Wolbachia per cell robust z, rep 1": 1.08, "Wolbachia per cell robust z, rep 2": -1.94, "Wolbachia per cell robust z, rep 3": 0.705, "call": "inactive"}
{"target": "CG8252", "reagent no.": 2, "Wolbachia per cell robust z, rep 1": -2.32, "Wolbachia per cell robust z, rep 2": 0.798, "Wolbachia per cell robust z, rep 3": 0.556, "call": "inactive"}
{"target": "CR40282", "reagent no.": 1, "Wolbachia per cell robust z, rep 1": 0.855, "Wolbachia per cell robust z, rep 2": 0.337, "Wolbachia per cell robust z, rep 3": 0.398, "call": "inactive"}
{"target": "P5CDh1", "reagent no.": 1, "Wolbachia per cell robust z, rep 1": 0.453, "Wolbachia per cell robust z, rep 2": -1.01, "Wolbachia per cell robust z, rep 3": 0.65, "call": "inactive"}
{"target": "Mcm5", "reagent no.": 1, "Wolbachia per cell robust z, rep 1": -0.192, "Wolbachia per cell robust z, rep 2": 0.62, "Wolbachia per cell robust z, rep 3": -1.23, "call": "inactive"}
{"target": "Mcm5", "reagent no.": 2, "Wolbachia per cell robust z, rep 1": -0.269, "Wolbachia per cell robust z, rep 2": 0.0218, "Wolbachia per cell robust z, rep 3": -0.304, "call": "inactive"}

2 entries already listed, sorted by “Wolbachia per cell robust z, rep 3”, lowest first.
{"target": "hrg", "reagent no.": 1, "Wolbachia per cell robust z, rep 1": -0.125, "Wolbachia per cell robust z, rep 2": 0.289, "Wolbachia per cell robust z, rep 3": -0.926, "call": "inactive"}
{"target": "gdl + gdl-ORF39", "reagent no.": 1, "Wolbachia per cell robust z, rep 1": -2.64, "Wolbachia per cell robust z, rep 2": -0.744, "Wolbachia per cell robust z, rep 3": -0.29, "call": "inactive"}
